Measured values from several laboratories, pooled; numbers as filed in NIAID ChemDB.

Percent inhibition refers to the dose given; in toxicity tests it is the harm to the cells. Lines come from different laboratories, so protocols vary. ICn: concentration for n% inhibition. CCn: concentration that lowers growth or viability of the cells by n%. ECn is the concentration giving n% inhibition of infection, replication or growth. Blank or dashed fields: not listed here.

structure,species,cell line,target,kind,read-out,strain or isolate,dose,value
Nc1ccn(C[C@H]2COP(=O)(O)CO2)c(=O)n1,Variola virus,VERO,,culture,EC50,Isolate Hinden,,19 µg/mL
CCCCCCCCCCCCCCCCCC(=O)OC[C@@H](COP(=O)(O)OCCNCCO[C@@]1(C(=O)O)O[C@@H]([C@H](O)[C@H](O)CO)[C@H](NC(C)=O)[C@@H](O)[C@H]1F)OC(=O)CCCCCCCCCCCCCCCCC,Influenza A virus,,Sialidase,target,IC50,H1N1 A/DUCK/HK/36/76,,62.5 µM
Nc1nccc2c1ncn2[C@@H]1C[C@H](CO)[C@@H](O)[C@H]1O,Variola virus,LLC-MK2,,culture,EC50,Isolate Bangladesh,,1.6 µg/mL
Nc1ccn(C[C@@H](CO)OCP(=O)(O)O)c(=O)n1,Camelpox virus,VERO 76,,culture,EC50,,,33 µM
O=C(N[C@@H](C(=O)O)c1ccccc1)c1ccc2c(c1)nc(-c1ccccn1)n2C1CCCCC1,Poliovirus,,RNA-dependent RNA polymerase,target,IC50,,,>25 µM
Nc1nc(=O)n([C@@H]2C=C(CO)[C@@H](O)[C@H]2O)cc1F,,VERO,,toxicity,CC50,,,100 µg/mL
NC(=O)c1c[se]c([C@@H]2O[C@H](CO)[C@@H](O)[C@H]2O)n1,Yellow fever virus,LLC-MK2,,culture,EC50,Asibi,,0.08 µg/mL
CCCCCCCCCCCCCCCCCC(=O)OC[C@@H](COP(=O)(O)OCCNCCO[C@@]1(C(=O)O)O[C@@H]([C@H](O)[C@H](O)CO)[C@H](NC(C)=O)[C@@H](O)[C@H]1F)OC(=O)CCCCCCCCCCCCCCCCC,Influenza A virus,,Sialidase,target,IC50,H11N3 A/DUCK/44/3/76,,75 µM
COc1ccc(CCNC(=O)c2ccc3c(c2)nc(-c2cccc(O)c2)n3C2CCCCC2)cc1OC,Poliovirus,,RNA-dependent RNA polymerase,target,IC50,,,>25 µM
CCCCCCCCCCCCC/C=C/[C@@H](O)[C@H](CO[C@@H]1O[C@H](CO)[C@H](O)[C@H](OS(=O)(=O)O)[C@H]1O)NC(=O)CCCCCCCCCCCCCCCCCCCCCCC,Influenza A virus,,Sialidase,target,inhibition,H3N8 A/duck/Hokkaido/8/80,200 µM,39.2%
O=C(NC(Cc1ccc(C(=O)O)c(F)c1)C(=O)O)c1ccc2c(c1)nc(-c1ccoc1)n2C1CCCCC1,Poliovirus,,RNA-dependent RNA polymerase,target,IC50,,,>25 µM
Nc1nccc2c1ncn2[C@@H]1C=C(CO)[C@@H](O)[C@H]1O,Variola virus,VERO,,culture,EC50,Isolate Yamada,,0.04 µg/mL
O=C(O)COc1ccc2[nH]cc(C[C@H](NC(=O)c3ccc4c(c3)nc(-c3ccoc3)n4C3CCCC3)C(=O)O)c2c1,Poliovirus,,RNA-dependent RNA polymerase,target,IC50,,,>25 µM
O=c1[nH]cnc2c1ncn2[C@@H]1C=C(CO)[C@@H](O)[C@H]1O,Variola virus,VERO,,culture,EC50,BSH,,>100 µg/mL
O=C(N[C@@H](Cc1ccc([N+](=O)[O-])cc1)C(=O)O)c1ccc2c(c1)nc(-c1ccoc1)n2C1CCCCC1,Poliovirus,,RNA-dependent RNA polymerase,target,IC50,,,>25 µM
O=c1cnn([C@@H]2O[C@H](CO)[C@@H](O)[C@H]2O)c(=O)[nH]1,Camelpox virus,VERO 76,,culture,EC50,,,3.1 µM
Nc1ccn(C[C@@H](CO)OCP(=O)(O)O)c(=O)n1,Variola virus,VERO,,culture,EC50,Isolate Higgins,,14 µg/mL
O=C(NC(C(=O)O)c1ccc(Cl)cc1)c1ccc2c(c1)nc(-c1ccoc1)n2C1CCCCC1,Poliovirus,,RNA-dependent RNA polymerase,target,IC50,,,>25 µM

The last 2 rows once more:

structure	species	cell line	target	kind	read-out	strain or isolate	dose	value
Nc1ccn(C[C@@H](CO)OCP(=O)(O)O)c(=O)n1	Variola virus	VERO		culture	EC50	Isolate Higgins		14 µg/mL
O=C(NC(C(=O)O)c1ccc(Cl)cc1)c1ccc2c(c1)nc(-c1ccoc1)n2C1CCCCC1	Poliovirus		RNA-dependent RNA polymerase	target	IC50			>25 µM